In patent publication US20130280271A1, “Inhibition of human immunodeficiency virus integrase reaching dimer formation utilizing single-chain variable antibodies” (INSTITUTE FOR CANCER RESEARCH, published 2013):
Numbering of substitutions follows the chain as printed. Names and notes keep the numbering of the source.

What was measured:
[1] = molecular target: the molecule itself; test: static light scattering, 2.3 mg/ml; self-association
[2] = molecular target: the molecule itself; test: static light scattering, 2.5 mg/ml; self-association
[3] = molecular target: the molecule itself; test: light scattering, 1.63 mg/ml; self-association
[4] = molecular target: the molecule itself; test: static light scattering, 2.2 mg/ml; self-association
[5] = molecular target: the molecule itself; test: light scattering, 1.85 mg/ml; self-association
[6] = molecular target: the molecule itself; test: static light scattering, 2.0 mg/ml; self-association
[7] = molecular target: the molecule itself; test: static light scattering; self-association

B1: ASV IN(1-286) wild type (enzyme)
chain: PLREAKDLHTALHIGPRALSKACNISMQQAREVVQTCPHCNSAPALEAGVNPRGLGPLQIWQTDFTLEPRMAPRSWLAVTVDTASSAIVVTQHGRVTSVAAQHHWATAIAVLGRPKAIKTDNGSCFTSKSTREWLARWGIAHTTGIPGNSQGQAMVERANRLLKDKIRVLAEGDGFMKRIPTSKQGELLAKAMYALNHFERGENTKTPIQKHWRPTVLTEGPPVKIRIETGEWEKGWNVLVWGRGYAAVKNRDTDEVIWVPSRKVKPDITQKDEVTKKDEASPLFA
B1: binds [1].

B2: ASV IN(1-286) F199K (enzyme)
chain: B1 chain with F199K
B2: binds [2].

B3: HIV-1 IN wild type (His6-tagged, light scattering and SAXS preparations) (enzyme)
chain: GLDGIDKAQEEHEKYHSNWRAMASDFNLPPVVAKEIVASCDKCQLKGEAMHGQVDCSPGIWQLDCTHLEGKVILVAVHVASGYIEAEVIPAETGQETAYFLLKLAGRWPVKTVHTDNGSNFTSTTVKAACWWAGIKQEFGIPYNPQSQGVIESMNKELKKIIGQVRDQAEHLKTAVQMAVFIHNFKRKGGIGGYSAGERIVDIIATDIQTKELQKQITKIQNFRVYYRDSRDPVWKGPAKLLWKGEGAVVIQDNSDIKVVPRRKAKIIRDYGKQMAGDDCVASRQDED
notes: also called wild type HIV IN; HIV-1 IN WT
B3: binds [3].

B4: ASV IN(1-286) E157C/F199K (enzyme)
chain: B1 chain with E157C, F199K
B4: binds [4].

B5: HIV-1 IN E11K (enzyme)
chain: B3 chain with E11K
B5: binds [5].

B6: ASV IN(49-286) F199K (enzyme)
chain: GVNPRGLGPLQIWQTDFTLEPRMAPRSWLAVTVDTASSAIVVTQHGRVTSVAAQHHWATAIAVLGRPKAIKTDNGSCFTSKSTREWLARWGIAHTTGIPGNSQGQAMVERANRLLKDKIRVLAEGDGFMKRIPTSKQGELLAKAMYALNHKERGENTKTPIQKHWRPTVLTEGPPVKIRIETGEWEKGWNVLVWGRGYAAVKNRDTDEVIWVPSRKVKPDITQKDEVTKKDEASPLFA
B6: binds [6].

B7: ASV IN(1-286) C23S/C125S/F199K/W259A (enzyme)
chain: B1 chain with C23S, C125S, F199K, W259A
B7: no binding (tested: 1.0 mg/ml) [7].

B8: ASV IN(1-286) W259A (enzyme)
chain: B1 chain with W259A
B8: no binding (tested: 2.5 mg/ml) [7].
